Measurements reported in PubChem BioAssay AID1259414 (Drosophila RNAi Screening Center, 2018).
The deposit covers about 24,000 reagents; below is an unselected part of those that have a named target and a result. Over the whole deposit, about 1,210 (5%) are marked active. 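Inactive calls also include excluded dsRNAs with several or no targets, genes unexpressed in JW18, and well A1, regardless of score.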 Reagents against one gene are numbered here. Names joined by + are all predicted targets of the reagent. No sequences are given here.

- Assay: 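Host factors increasing or decreasing Wolbachia levels in cultured fly cells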 (primary screen)
- Cell system: Drosophila JW18 cells infected with Wolbachia
- Knock-down reagent: long dsRNA against Drosophila genes, 0.25 µg dsRNA per well of a 384-well plate
- Time to read-out: 5 days
- Challenge: cells persistently infected with Wolbachia before knock-down; no added drug
- Read-out: 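Automated imaging of bacterial rRNA staining divided by host cell count, reported as plate-normalised robust z-score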
- Reading the numbers: Wolbachia per cell robust z: higher = more Wolbachia per host cell than the plate typical
- Rule for the call: 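Hit when robust z is 1.5 or more, or -1.5 or less, in at least two of three replicates; excludes dsRNAs with several or no targets, genes not expressed in JW18 and well A1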

no.	Gene	reagent	Wolbachia per cell robust z, rep 1	Wolbachia per cell robust z, rep 2	Wolbachia per cell robust z, rep 3	outcome
1	SNF4Agamma (SNF4/AMP-activated protein kinase gamma subunit)	1	0.588	0.678	0.871	inactive
2	SNF4Agamma (SNF4/AMP-activated protein kinase gamma subunit)	2	-3.38	0.238	0.763	inactive
3	SNF4Agamma (SNF4/AMP-activated protein kinase gamma subunit)	3	-0.133	0.555	1.15	inactive
4	SNF4Agamma (SNF4/AMP-activated protein kinase gamma subunit)	4	0.0223	0.763	1.6	inactive
5	SNF4Agamma (SNF4/AMP-activated protein kinase gamma subunit)	5	-0.675	-0.0255	0.452	inactive
6	CG15923	1	0.762	1.43	-0.55	inactive
7	PCB (Pyruvate carboxylase)	1	0.304	-0.0668	1.14	inactive
8	Ptpmeg (Protein tyrosine phosphatase Meg)	1	1.11	-4.67	0.896	inactive
9	Ptpmeg (Protein tyrosine phosphatase Meg)	2	-0.0281	-1.22	0.656	inactive
10	CG5897	1	1.2	0.731	-6.1	inactive
11	CG18568	1	-0.274	-1.59	0.911	inactive
12	CG18568	2	-0.874	-1.98	-1.14	inactive
13	Or43b (Odorant receptor 43b)	1	-2.96	-6.77	-0.0386	active
14	Or43b (Odorant receptor 43b)	2	-0.423	0.983	-0.399	inactive
15	Arr1 (Arrestin 1)	1	2.06	0.376	0.994	inactive
16	Aldh7A1 (Aldehyde dehydrogenase 7 family member A1)	1	-0.0153	0.676	-0.461	inactive
17	CG18746	1	-1.7	-0.438	0.132	inactive
18	CG11905	1	0.806	-0.143	-2.78	inactive
19	CG11905	2	0.363	-0.437	-0.695	inactive
20	Obp57a (Odorant-binding protein 57a)	1	-2.42	0.484	0.66	inactive
21	Obp57a (Odorant-binding protein 57a)	2	0.83	-0.364	0.151	inactive
22	lilli (lilliputian)	1	-5.73	-1.56	-0.463	inactive
23	lilli (lilliputian)	2	0.201	1.07	-1.66	inactive
24	CG2127	1	-4.93	-1.07	-0.0739	inactive
25	CG15386 + CG42371	1	0.113	1.34	0.389	inactive
26	CG3795	1	0.466	1.04	0.931	inactive
27	CG3795	2	0.0433	-1.04	0.506	inactive
28	Der-2 (Derlin-2)	1	0.351	0.786	-0.892	inactive
29	Spps (Sp1-like factor for pairing sensitive-silencing)	1	-1.61	0.291	0.339	inactive
30	Fas1 (Fasciclin 1)	1	-0.583	0.793	0.667	inactive
31	CG43349	1	-1.47	-1.17	-0.534	inactive
32	CG33454	1	0.53	0.6	0.413	inactive
33	CG33454	2	-5.8	-0.36	-1.4	inactive
34	cad (caudal)	1	0.336	0.229	-1.18	inactive
35	cad (caudal)	2	0.388	-0.713	0.952	inactive
36	Cul3 (Cullin 3)	1	0.54	0.729	-3.1	inactive
37	Cul3 (Cullin 3)	2	-0.844	-1.18	-0.152	inactive
38	Cul3 (Cullin 3)	3	-0.0527	0.391	-0.331	inactive
39	Cul3 (Cullin 3)	4	2.32	1.41	0.997	inactive
40	stau (staufen)	1	-2.16	0.228	0.242	inactive
41	Osi15 (Osiris 15)	1	0.121	-2.15	-1.74	inactive
42	CG9192	1	0.759	0.408	0.0509	inactive
43	CG17625	1	0.0242	0.58	-1.44	inactive
44	CG43338	1	0.716	-0.423	-0.209	inactive
45	tobi (target of brain insulin)	1	-3.37	-0.182	-1.14	inactive
46	CG42633	1	-0.45	0.622	1.02	inactive
47	CG42633	2	0.333	-2.78	0.836	inactive
48	Shab (Shaker cognate b)	1	1.39	0.433	0.731	inactive
49	Shab (Shaker cognate b)	2	0.766	-0.0574	0.507	inactive
50	Shab (Shaker cognate b)	3	-0.677	0.333	-0.264	inactive
51	Shab (Shaker cognate b)	4	-0.553	0.457	0.593	inactive
52	CG7943	1	0.286	-0.63	-0.413	inactive
53	CG34133	1	1.73	1.23	2.71	active
54	CG34133	2	-2.3	0.783	-0.673	inactive
55	CG34133	3	1.35	0.0576	0.969	inactive
56	CG34133	4	-1.43	0.27	0.612	inactive
57	RpS7 (Ribosomal protein S7)	1	2.09	2.27	1.84	active
58	RpS7 (Ribosomal protein S7)	2	-0.0439	2.37	1.32	inactive
59	CG17646	1	1.31	-0.000568	0.123	inactive
60	CG18530	1	0.556	-0.0526	0.16	inactive
61	CG11590	1	-3.02	-0.445	0.775	inactive
62	CG11590	2	-1.11	-0.457	-1.07	inactive
63	Mic26-27 (MICOS subunit 26/27)	1	-1.63	-0.0188	0.229	inactive
64	CG14017	1	-0.194	0.515	0.558	inactive
65	CG10307	1	0.692	-1.82	0.64	inactive
66	CG10307	2	-0.408	1.22	-0.17	inactive
67	CG18641	1	0.369	-5.8	2.24	inactive
68	CG32026	1	0.155	0.45	-1.02	inactive
69	CG32026	2	0.811	0.634	-0.204	inactive

No new results follow: 10 of the entries above.
no.	Gene	reagent	Wolbachia per cell robust z, rep 1	Wolbachia per cell robust z, rep 2	Wolbachia per cell robust z, rep 3	outcome
16	Aldh7A1 (Aldehyde dehydrogenase 7 family member A1)	1	-0.0153	0.676	-0.461	inactive
17	CG18746	1	-1.7	-0.438	0.132	inactive
18	CG11905	1	0.806	-0.143	-2.78	inactive
19	CG11905	2	0.363	-0.437	-0.695	inactive
20	Obp57a (Odorant-binding protein 57a)	1	-2.42	0.484	0.66	inactive
21	Obp57a (Odorant-binding protein 57a)	2	0.83	-0.364	0.151	inactive
22	lilli (lilliputian)	1	-5.73	-1.56	-0.463	inactive
23	lilli (lilliputian)	2	0.201	1.07	-1.66	inactive
24	CG2127	1	-4.93	-1.07	-0.0739	inactive
25	CG15386 + CG42371	1	0.113	1.34	0.389	inactive
